From patent US8937153B2, “Compositions, methods and uses” (Affibody AB, priority 2007, dated 2015)

Legend:
cynomolgus primates = assay: Primate immunogenicity, anti-Z00342 IgG specific ELISA (Example 4); type: in vivo, Macaca fascicularis
Description: (§1) Administration and sampling schemes: The animal study was performed at SMI (Smittskyddsinsitutet) in Solna, Sweden, with permission from the local ethical animal committee (N196/06). The primates were sedated before administration of the test molecules and blood sampling, by an intramuscular administration of ketamine (Ketalar®). 10 individual cynomolgus primates, Macaca fascicularis, divided into two groups were intravenously injected with the test molecules according to the scheme in Table 8.
(§2) PK refers to samples taken for the pharmacokinetic study. Blood was stored at 4° C. over night and sera were subsequently kept at −20° C.
(§3) In general, a volume of 50 μl per well was used for all incubation steps except for blocking where a volume of 100 μl was used. Plates were coated over night at 4° C. in coating buffer (15 mM Na2CO3, 35 mM NaHCO3, pH 9.6) and washed with tap water. Blocking and dilutions were done in PBS with 0.5% casein. Incubation times at room temperature were 1-2 hours for blocking and serum, 1 hour for secondary antibody and 10 min for substrate solution (ImmunoPure® TMB, Pierce, cat no 34021). […] The color reaction was stopped by addition of 50 μl 2 M H2SO4 and plates were read at 450 nm using an Ultra384 plate reader (Tecan) equipped with the Magellan software v3.11 (Tecan). […]

[1] = Primate pharmacokinetics, serum-Z specific sandwich ELISA (Example 4); type: in vivo, Macaca fascicularis; conditions: i.v. 0.5 mg/kg
Description: as §1, §2, §3

Substance: Z00342: variant of protein Z, derived from the B domain of staphylococcal protein A, with an affinity for the HER2 receptor
- median concentration of IgG specific for Z variants (cynomolgus primates; day 45, calculated by linear regression using positive control as standard): 2 units/ml
- IgG antibody response specific for the injected molecule (ELISA titer) (cynomolgus primates; i.v. 0.5 mg/kg/injection, repeated injections, serum days 0-45, 5 primates per group): antibody titer increased steadily and reached a maximum at day 28-35 in three of the animals (9039, 10025, 11019), whereas two showed a low antibody response
- time until disappeared from the circulation [1]: ≤ 4 h
